Reference: patent US20250120989A1, “BRIDGED TRICYCLIC CARBAMOYLPYRIDONE COMPOUNDS AND USES THEREOF” (priority 2023, published 2025)

Experiments:
HIV-1 (IIIB) = experiment: Antiviral assay in MT-4 cells; type: cell-based; settings: read-out: MT4 EC50; HIV-1 (IIIB) replication in MT-4 cells, 5 days, Cell Titer Glo
MT-4 cells = experiment: Cytotoxicity assay in MT-4 cells; settings: read-out: MT4 CC50; uninfected MT-4 cells, 5 days, Cell Titer Glo

| SMILES | EC50 (HIV-1 (IIIB)) [nM] | CC50 (MT-4 cells) [nM] |
| --- | --- | --- |
| CC1=NO[C@@]2(CC[C@H](C)N3C[C@H]2n2cc(C(=O)NCc4ccc(F)cc4F)c(=O)c(OC(=O)N(CCOP(=O)(O)O)CC(=O)O)c2C3=O)C1 | 1.94 | – |
| CC1=NO[C@@]2(CC[C@H](C)N3C[C@H]2n2cc(C(=O)NCc4ccc(F)cc4F)c(=O)c(OC(=O)N(C)CCN(C)C(=O)OCOP(=O)(O)O)c2C3=O)C1 | 1.63 | 17500 |
| CC1=NO[C@@]2(CC[C@H](C)N3C[C@H]2n2cc(C(=O)NCc4ccc(F)cc4F)c(=O)c(OC(=O)N(C)C)c2C3=O)C1 | 100 | 50000 |
| CC1=NO[C@@]2(CC[C@H](C)N3C[C@H]2n2cc(C(=O)NCc4ccc(F)cc4F)c(=O)c(OC(=O)N(C)CCN(CC(=O)O)C(=O)OCOP(=O)(O)O)c2C3=O)C1 | 1.75 | 17800 |
| CC1=NO[C@@]2(CC[C@H](C)N3C[C@H]2n2cc(C(=O)NCc4ccc(F)cc4F)c(=O)c(OC(=O)N(CCN(CC(=O)O)C(=O)OCOP(=O)(O)O)CC(=O)O)c2C3=O)C1 | 2.13 | 10600 |
